We go through three compounds from PMC8018184, “Evaluation of the Pharmacophoric Role of the O–O Bond in Synthetic Antileishmanial Compounds: Comparison between 1,2-Dioxanes and Tetrahydropyrans” (Journal of Medicinal Chemistry, 2020).

The subject of the data set is L. donovani promastigotes. The data set can be described thus: Confocal microscopy localization of fluorescent compounds. The format is cell-based, Leishmania donovani. The settings on record: labeled compound at IC50, 45/50 min; TO-PRO-3 counterstain.
As to `CCCCC1(CCCC)C[C@H](CNCCCCNc2c3ccc(Cl)cc3nc3ccc(OC)cc23)[C@](C)(OC)OO1` [2e, N^1-(6-Chloro-2-methoxyacridin-9-yl)-N^4-((6,6-dibutyl-3-methoxy-3-methyl-1,2-dioxan-4-yl)methyl)butane-1,4-diamine], the “Cell localization in promastigotes (confocal microscopy)” value is “colocalization of green and blue fluorescence not only in the kinetoplast but also in the nucleus”.
For `CCCCC1(CCCC)CO[C@@](C)(OC)[C@@H](CNCCCCNc2c3ccc(Cl)cc3nc3ccc(OC)cc23)C1` (racemic) [3e, N^1-(6-Chloro-2-methoxyacridin-9-yl)-N^4-((5,5-dibutyl-2-methoxy-2-methyltetrahydro-2H-pyran-3-yl)methyl)butane-1,4-diamine] the value was “in the parasite cytoplasm and in the kinetoplast but not in the nucleus”; for `CCCCC1(CCCC)C[C@H](CNCCCCNc2ccc([N+](=O)[O-])c3nonc23)[C@](C)(OC)OO1` [2f, N^1-((6,6-Dibutyl-3-methoxy-3-methyl-1,2-dioxan-4-yl)methyl)-N^4-(7-nitrobenzo[c][1,2,5]oxadiazol-4-yl)butane-1,4-diamine], “spread throughout the parasite cytoplasm and it was able to enter the kinetoplast but not the nucleus”.
